Results of unrelated studies side by side (data: NIAID ChemDB).

Common to all: whole-cell or culture tests; organism: HIV-1; endpoint: EC50

Conditions beyond the fields shown may differ between rows.

Nn1c(S[C@@H]2O[C@H](CO)[C@@H](O)[C@H](O)[C@H]2O)nnc1-c1ccc(Cl)cc1 ; cell line: MT-4 ; strain or isolate: IIIB ; result: >100 µM
CCCCCC=C(c1cc(Cl)c(O)c(C(=O)NO)c1)c1cc(Cl)c(O)c(C(=O)NO)c1 ; cell line: PBLC ; strain or isolate: WEJO ; method: p24 ; result: 112 µM
Cc1cn([C@@H]2O[C@@H]3CN[C@@]4(OCc5ccccc5)CS(=O)(=O)O[C@@]34[C@H]2O)c(=O)[nH]c1=O ; cell line: CEM ; strain or isolate: IIIB ; result: >100 µM
Cc1cn([C@H]2C[C@H](N=[N+]=[N-])[C@@H](CO)O2)c(=O)[nH]c1=O ; cell line: C8166 ; strain or isolate: IIIB ; method: fluorescence ; result: 0.19 µM
O=C(CSc1nc2ccccc2[nH]1)Nc1ccccc1 ; cell line: MT-4 ; strain or isolate: IIIB ; method: p24 / ELISA / antigen ; result: 5.07 µM
Cc1cn([C@H]2C[C@H](SS[C@H]3C[C@H](n4cc(C)c(=O)[nH]c4=O)O[C@@H]3CO)[C@@H](CO)O2)c(=O)[nH]c1=O ; cell line: CEM ; strain or isolate: IIIB ; method: syncytia ; result: 50 µM
COc1cnc(NC(=O)CSc2nnc(N)s2)[n+](OC)c1 ; cell line: MT-4 ; strain or isolate: IIIB ; method: p24 / ELISA / antigen ; result: 7.5 µM
COc1ccc(-c2nnc(S[C@@H]3O[C@H](COC(C)=O)[C@@H](OC(C)=O)[C@H](OC(C)=O)[C@H]3OC(C)=O)n2N)cc1 ; cell line: MT-4 ; mutations: RT-Y181C ; strain or isolate: NNRTI-resistant N119 ; result: >100 µM
CC(C)C1=C2[C@H]3CC[C@@H]4[C@@]5(C)CC[C@H](OC(=O)[C@H]6C[C@@H](C(=O)O)C6(C)C)C(C)(C)[C@@H]5CC[C@@]4(C)[C@]3(C)CC[C@@]2(CC(=O)NC(F)(CO)CNC(=O)c2ccc(Cl)cc2)CC1=O ; cell line: MT-2 ; strain or isolate: 92HT599 ; method: p24 / ELISA ; result: <1 µM
CC(C)CCC[C@@H](C)[C@H]1CC[C@H]2[C@@H]3CC[C@H]4C[C@@H](CCC=C(c5cc(Cl)c(O)c(C(=O)O)c5)c5cc(Cl)c(O)c(C(=O)O)c5)CC[C@]4(C)[C@H]3CC[C@]12C ; cell line: PBLC ; strain or isolate: WEJO ; method: p24 ; result: 33 µM
Nc1nnc(SCC(=O)Nc2cc(F)ccc2F)s1 ; cell line: MT-4 ; strain or isolate: IIIB ; method: p24 / ELISA / antigen ; result: 16.1 µM
Cc1cn([C@@H]2O[C@@H]3CN[C@@]4(C#N)CS(=O)(=O)O[C@@]34[C@H]2O)c(=O)[nH]c1=O ; cell line: CEM ; strain or isolate: IIIB ; result: >250 µM
COc1cnc(-n2cnc(C)n2)c2[nH]cc(C(=O)C(=O)N3CCN(C(=O)c4ccccc4)CC3)c12 ; cell line: U-87 ; strain or isolate: AD8 ; method: luciferase ; result: 0.0024 µM
O=C1CC2CCC1C1C(=O)N(CCCCN3CCN(c4ccccn4)CC3)C(=O)C21 ; cell line: MT-4 ; method: MTT ; result: >100 µM
Cc1ccc(-c2nnc3sc(C(CC(C)C)N4C(=O)c5ccccc5C4=O)nn23)cc1 ; cell line: MT-4 ; strain or isolate: IIIB ; result: >100 µM
Nc1ncnc2c1ncn2COCCOP(=O)(O)O[C@@H]1C[C@@H](COP(=O)(O)O[C@@H]2C[C@@H](COP(=O)(O)O[C@@H]3C[C@@H](CO)O[C@H]3n3cnc4c(NCc5ccccc5)ncnc43)O[C@H]2n2cnc3c(N)ncnc32)O[C@H]1n1cnc2c(N)ncnc21 ; cell line: SupT1 + Sup-T1 ; method: p24 ; result: 100 µM
O=C1CC2CCC1C1C(=O)N(CC(O)CN3CCCCC3)C(=O)C21 ; cell line: MT-4 ; method: MTT ; result: >100 µM
Cc1cn([C@@H]2O[C@@H]3CN[C@@]4(C(N)=O)CS(=O)(=O)O[C@@]34[C@H]2O[Si](C)(C)C(C)(C)C)c(=O)[nH]c1=O ; cell line: MT-4 ; strain or isolate: IIIB ; result: >125 µM
O=C(CSc1ccccn1)Nc1cc(F)ccc1F ; cell line: MT-4 ; strain or isolate: IIIB ; method: p24 / ELISA / antigen ; result: >100 µM
CSCC[C@H](NC(=O)[C@H](CCO)N(Cc1ccccc1)C(=O)[C@H](CC(C)C)NC(=O)OCc1ccccc1)C(=O)NC(C)(C)C ; cell line: CEM + CEM-SS ; strain or isolate: IIIB ; method: p24 ; result: 0.295 µM
O=C1CC2CCC1C1C(=O)N(CC(O)CN3CCN(c4ccccc4)CC3)C(=O)C21 ; cell line: MT-4 ; method: MTT ; result: >100 µM
COc1cc2c(=O)[nH]c(-c3ccc[nH]3)nc2c(OC)c1OC ; cell line: TZM-bl ; strain or isolate: NL4-3 ; method: luciferase ; result: 6.212 µM
CC(C)C1=C2[C@H]3CC[C@@H]4[C@@]5(C)CC[C@H](OC(=O)[C@H]6C[C@@H](C(=O)O)C6(C)C)C(C)(C)[C@@H]5CC[C@@]4(C)[C@]3(C)CC[C@@]2(CCNCC(C)(C)NC(=O)C2CCNCC2)CC1=O ; cell line: MT-2 ; strain or isolate: 92HT599 ; method: p24 / ELISA ; result: <1 µM
CSCC[C@H](NC(=O)[C@H](CCO)N(Cc1ccccc1)C(=O)[C@H](CC(C)C)NC(=O)OCC1c2ccccc2-c2ccccc21)C(=O)NC(C)(C)C ; cell line: CEM + CEM-SS ; strain or isolate: IIIB ; method: p24 ; result: 0.052 µM
Cc1ccc(-c2nnc3sc(C(N)CC(C)C)nn23)cc1 ; cell line: MT-4 ; mutations: RT-Y181C ; strain or isolate: NNRTI-resistant N119 ; result: >100 µM
CSCC[C@H](NC(=O)[C@H](CO)N(Cc1ccccc1)C(=O)[C@H](Cc1ccccc1)NC(=O)OCc1ccccc1)C(=O)NC(C)(C)C ; cell line: CEM + CEM-SS ; strain or isolate: IIIB ; method: p24 ; result: 0.31 µM
Nc1ncnc2c1ncn2COCCOP(=O)([O-])O[C@@H]1[C@H](O)[C@@H](COP(=O)([O-])O[C@@H]2[C@H](O)[C@@H](COP(=O)([O-])O[C@@H]3[C@H](O)[C@@H](CO)O[C@H]3n3cnc4c(NCc5ccccc5)ncnc43)O[C@H]2n2cnc3c(N)ncnc32)O[C@H]1n1cnc2c(N)ncnc21 ; cell line: SupT1 + Sup-T1 ; method: syncytia ; result: <100 µM
Cc1cn([C@@H]2O[C@@H]3CN[C@@]4(OCC5CCOC5)CS(=O)(=O)O[C@@]34[C@H]2O[Si](C)(C)C(C)(C)C)c(=O)[nH]c1=O ; cell line: CEM ; strain or isolate: IIIB ; result: >50 µM
CC(C)C1=C2[C@H]3CC[C@@H]4[C@@]5(C)CC[C@H](OC(=O)[C@H]6C[C@@H](C(=O)O)C6(C)C)C(C)(C)[C@@H]5CC[C@@]4(C)[C@]3(C)CC[C@@]2(CCNCC2CCNCC2)CC1=O ; cell line: MT-2 ; strain or isolate: 92HT599 ; method: p24 / ELISA ; result: <1 µM
Nc1ncnc2c1ncn2COCCOP(=O)([O-])O[C@@H]1[C@H](O)[C@@H](COP(=O)([O-])O[C@@H]2[C@H](O)[C@@H](COP(=O)([O-])O[C@@H]3[C@H](O)[C@@H](CO)O[C@H]3n3cnc4c(N)ncnc43)O[C@H]2n2cnc3c(N)ncnc32)O[C@H]1n1cnc2c(N)ncnc21 ; cell line: SupT1 + Sup-T1 ; method: RT activity ; result: <300 µM
O=C1CC2CCC1C1C(=O)N(CCCCN3CCN(Cc4ccccc4)CC3)C(=O)C21 ; cell line: MT-4 ; method: MTT ; result: >100 µM
Cc1cn([C@H]2C[C@H](N=[N+]=[N-])[C@@H](CO)O2)c(=O)[nH]c1=O ; cell line: CEM ; strain or isolate: IIIB ; method: syncytia ; result: 0.004 µM
Cc1cn([C@@H]2O[C@@H]3CN[C@@]4(OCc5ccccc5)CS(=O)(=O)O[C@@]34[C@H]2O[Si](C)(C)C(C)(C)C)c(=O)[nH]c1=O ; cell line: MT-4 ; strain or isolate: IIIB ; result: >10 µM
CC1(C)[C@@H](O[C@H]2O[C@H](C(=O)O)[C@@H](O)[C@H](O)[C@H]2O[C@@H]2O[C@H](C(=O)O)[C@@H](O)[C@H](O)[C@H]2O)CC[C@]2(C)[C@H]3C(=O)C=C4[C@@H]5C[C@@](C)(C(=O)O)CC[C@]5(C)CC[C@@]4(C)[C@]3(C)CC[C@@H]12 ; cell line: MT-4 ; strain or isolate: IIIB ; method: cytopathic effect / MTT ; result: <620 µM
CC(C)C1=C2[C@H]3CC[C@@H]4[C@@]5(C)CC[C@H](OC(=O)[C@H]6C[C@@H](C(=O)O)C6(C)C)C(C)(C)[C@@H]5CC[C@@]4(C)[C@]3(C)CC[C@@]2(CCNCC(C)(C)NC(=O)c2ccc(Cl)c(Cl)c2)CC1=O ; cell line: MT-2 ; strain or isolate: 92HT599 ; method: p24 / ELISA ; result: <1 µM
O=C1CC2CCC1C1C(=O)N(CC(O)CN3CCN(c4ccc(F)cc4)CC3)C(=O)C21 ; cell line: MT-4 ; method: MTT ; result: >100 µM
CC(C)C1=C2[C@H]3CC[C@@H]4[C@@]5(C)CC[C@H](OC(=O)[C@H]6C[C@@H](C(=O)O)C6(C)C)C(C)(C)[C@@H]5CC[C@@]4(C)[C@]3(C)CC[C@@]2(CCNC(=O)C2CCNCC2)CC1=O ; cell line: MT-2 ; strain or isolate: 92HT599 ; method: p24 / ELISA ; result: <1 µM
COc1ccc(-c2nnc(SSc3nnc(-c4ccc(OC)cc4)n3N)n2N)cc1 ; cell line: MT-4 ; strain or isolate: IIIB ; result: >100 µM
Cc1cc(CNCC[C@@]23CC[C@]4(C)[C@H](CC[C@@H]5[C@@]6(C)CC[C@H](OC(=O)[C@H]7C[C@@H](C(=O)O)C7(C)C)C(C)(C)[C@@H]6CC[C@]54C)C2=C(C(C)C)C(=O)C3)n[nH]1 ; cell line: MT-2 ; strain or isolate: 92HT599 ; method: p24 / ELISA ; result: <1 µM
Cc1cn([C@@H]2O[C@@H]3CN[C@@]4(C(N)=O)CS(=O)(=O)O[C@@]34[C@H]2O)c(=O)[nH]c1=O ; cell line: MT-4 ; strain or isolate: IIIB ; result: >250 µM

Repeating the first 3 entries:

compound | cell line | mutations | strain or isolate | method | result
Nn1c(S[C@@H]2O[C@H](CO)[C@@H](O)[C@H](O)[C@H]2O)nnc1-c1ccc(Cl)cc1 | MT-4 | - | IIIB | - | >100 µM
CCCCCC=C(c1cc(Cl)c(O)c(C(=O)NO)c1)c1cc(Cl)c(O)c(C(=O)NO)c1 | PBLC | - | WEJO | p24 | 112 µM
Cc1cn([C@@H]2O[C@@H]3CN[C@@]4(OCc5ccccc5)CS(=O)(=O)O[C@@]34[C@H]2O)c(=O)[nH]c1=O | CEM | - | IIIB | - | >100 µM

ECn: concentration that inhibits the pathogen or its effect by n%. An empty or dashed field is not shown.